Assay [1] has as its target T1, protective antigen of Bacillus anthracis (PA83) (Bacillus anthracis).
The target in assay [2] is T1, protective antigen of Bacillus …. The assay is described as follows: BIAcore; PA immobilized on CM5 chip, IgG1 in solution. (Surface plasmon resonance follows binding to a sensor surface in real time, without labels.)

B1: PWD0283 (IgG1 format) (antibody, V domains shown)
VH: EVQLLESGGGLVQPGGSLRLSCAASGFTFSSYATSWVRQAPGKGLEWVSAISGSGGSTYYADSVKGRFTISRDNSKNTLYLQMNSLRAEDTAVYYCARVGGAIRFDSWGRGTLVTVSS
VL: SYELTQPPSASETPGQRVSISCSGGTSNIGSNTINWYQQVPGTAPKLLIYFNNRRPAGVPARFSASKSGTSASLTISGLQSEDEADYYCSAWDDSLSGVVFGGGTKLTVLG
In the case of B1, the “IC50 (read off the curve)” value in assay [1] is around 0.1 micrograms/mL. In assay [2], this molecule returned an equilibrium dissociation constant (Kd) of 0.232 nM, a koff of 0.00103 s⁻¹ and a kon of 4.46e+06 M⁻¹ s⁻¹.

As a reminder, the Kd is the constant that tells how readily two partners part at equilibrium. A higher Kd goes with lower affinity. A word on the koff: it is the first-order rate constant of dissociation. A lower koff goes with slow dissociation. For orientation: kon means the second-order rate constant of association.
